Measured data: PubChem BioAssay AID1224833 (University of Georgia, 2016)
In all, the deposit lists about 12,000 reagents; shown is a part drawn at random. Over the whole deposit, about 5,600 (46%) got an active call. 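Active calls cover z-scores past 1 in both directions, so they include lowered as well as raised rotavirus replication.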 Entries without a mark were called inactive. No sequences are given here.

- Purpose: 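Human genes whose knock-down alters rotavirus replication in monkey cells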 (primary screen)
- Cell system: monkey MA104 kidney cells
- Knock-down reagent: siRNA pool against human genes, 50 nM
- Time to read-out: 48 h knock-down before infection; read 24 h after infection
- Challenge: infection with rotavirus strain RV3 two days after transfection; infectious dose for this stage not given
- Measured: 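z-score of rotavirus antigen signal per well, from a fluorescent immunoassay, relative to non-targeting control wells on the same plate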
- Reading the numbers: z-score vs non-targeting control: higher = more rotavirus replication than with non-targeting control
- Active means: In these data the active calls have z-score vs non-targeting control at about -1 or lower, or at about 1 or higher
- Meaning of the calls: active = z-score beyond 1 either way; inactive = z-score within 1 of zero

z-score vs non-targeting control,gene knocked down
-1.75 (active),LAMTOR4
2.1 (active),AFG3L2
-2.25 (active),WASF1
0.716,MSH5
1.81 (active),GNG5
-0.23,MBNL3
-0.441,ZDHHC19
0.0305,SLC9A8
-1.16 (active),SSC4D
1.65 (active),GDF2
1.19 (active),PSG1
-0.52,NR6A1
-1.66 (active),EIF3H
1.14 (active),ENTREP3
-0.537,RIMS3
-0.242,TAS2R7
-2.51 (active),H4C14
0.17,OR5K4
-1.47 (active),PRXL2B
-1.04 (active),TPR
0.404,PILRA
-0.308,CCDC90B
0.105,OR8G2P
0.569,LUZP4
-1.24 (active),DEFA4
-1.11 (active),TERB2
0.129,ZNF551
-0.102,CREB3L2
-1.11 (active),DFFB
-0.642,OR52K1
-1.72 (active),ACOX3
0.834,ZNF302
-1.12 (active),ETS2
-1.92 (active),MEPE
0.0864,HMCES
1.97 (active),TMEM59
-1.02 (active),GPX3
2.77 (active),SRSF10
-0.984,XTBD1
-0.772,GTF2B
0.203,GOLGA4
-0.141,DOCK11
-0.626,B4GALT6
0.167,FRS2
-0.257,SPRED2
0.646,TMEM92
-0.872,CSAD
-0.363,ZBTB41
-1.06 (active),NSDHL
2.42 (active),FANCD2
-0.691,RAD9B
-2.21 (active),C2orf15
-0.964,NHP2
-2.38 (active),ZNF221
0.643,BEST4
-0.53,PTH1R
1.53 (active),IL37

A few values from the list.
Under “z-score vs non-targeting control”, MSH5 is entered as 0.716
Value of ZBTB41 in “z-score vs non-targeting control”: -0.363
Value of PRXL2B under “z-score vs non-targeting control”: -1.47 (active)
LUZP4, z-score vs non-targeting control: 0.569
For “z-score vs non-targeting control”, FRS2 reads 0.167
For “z-score vs non-targeting control”, NSDHL has -1.06 (active)

The results go on:
z-score vs non-targeting control,gene knocked down
-1.8 (active),RAB43
0.892,NODAL
-0.749,TIPE2
0.755,FERMT1
-1.74 (active),GNS
0.282,RBM19
-1.92 (active),PRB2
-1.15 (active),CERKL
-0.0601,LRRC8B
-2.57 (active),GALNT5
-1.33 (active),THSD1
-0.867,NAA80
2.23 (active),PLEKHB1
-0.102,TP53INP2
1.12 (active),BMP10
-1.3 (active),DDX11
-0.684,GRHL1
-0.861,GAPDHS
-1.52 (active),XRCC2
-2.29 (active),NIT1
-0.75,SPINK4
-0.914,BNIP3
-1.33 (active),NFE2L3
-1.14 (active),IGLL1
-1.09 (active),NFAT5
0.705,OR2A2
-2.13 (active),SLC17A9
0.0472,OR4M1
-1.37 (active),ITGA4
-0.552,TNNI3
-0.712,GGT2P
-1.06 (active),C11orf16
0.32,SLC35E3
-0.796,ZNF135
-2.25 (active),HLA-DRA
1.53 (active),COX18
-0.181,C6orf136
0.979,NLRP5
-1.05 (active),RCOR2
-0.0296,HOOK3
-0.198,KDM6A
0.359,CCDC47
0.528,CCDC81
-0.788,GPR132
1.86 (active),DHRS3
-1.47 (active),GML
0.515,WHRN
-2.29 (active),ZNF3
1.77 (active),LYRM2
-1.93 (active),WDR17
-1.35 (active),DDHD2
-2.29 (active),CFL2
0.0753,SUMO3
-2.44 (active),TXNIP
-1.42 (active),NFE2
-0.544,PLXNC1
-1.81 (active),OR6C1
1.12 (active),TLR9
-1.03 (active),TMEM169
0.0775,NAP1L1
0.704,SMUG1
-0.464,CCDC34
-1.81 (active),DALRD3
2.47 (active),LDHAL6A
-1.61 (active),SLC19A4P
0.547,GAGE6
-0.099,CEP192
2.23 (active),STAP1
0.151,PRORP
-0.528,CA2
0.525,PCDHGC5
-0.605,WNT3A
-0.674,NHERF4
1.14 (active),TIMD4
-1.42 (active),HIVEP2
0.511,SYAP1
-1.74 (active),PYDC1
-1.29 (active),ADRB3
-0.962,ATP6V0A1
-1.44 (active),NOP2
-1.21 (active),ZNF43
-0.998,H2BC12
-0.543,PARVB
